Results on one substance are retold here after paper PMC3030508, “Analysis of the PDZ binding specificities of Influenza A Virus NS1 proteins” (2011).

Assay [1] addresses GST-Dlg (UniProt Q12959). Put plainly: GST pulldown. The note with it: 20% input lane shown.
The target in assay [2] is GST-Dlg (UniProt Q12959).

Like-named read-outs stand apart in the source and are kept apart here.

As to “Avian type Influenza A virus NS1 protein (non-structural protein 1), wild type”, the response (% input retained) with GST-Dlg [1] (parent: 40) stood at 1; in the assay with GST-Dlg [1] (in vitro translated NS1, parent: 25) it was 1.6; with GST-Dlg [2], 3.
